This note sets out measurements from the supplement of paper PMC9931576.

Common to all, as to experiment: pseudovirus neutralization IC50; higher = weaker neutralization
The target in experiment [1] is SARS-CoV-2 Omicron BA.1 spike pseudovirus. The protocol:
(§1)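 Single-round VSV luciferase pseudovirus mixed with antibody dilutions for 1 h and put on Huh-7 cells for about a day; IC50 from the dose curve.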

The target of experiment [2] is SARS-CoV-2 Omicron BA.2 spike pseudovirus. Here is the method:
as §1

The target in experiment [3] is SARS-CoV-2 Omicron BA.2.75 spike pseudovirus. The protocol:
as §1

The target in experiment [4] is SARS-CoV-2 Omicron BA.5 spike pseudovirus. The protocol:
as §1

The target of experiment [5] is SARS-CoV-2 Omicron BQ.1.1 spike pseudovirus. The protocol:
as §1

Experiment [6] deals with SARS-CoV-2 Omicron XBB spike pseudovirus. The protocol: as §1
Experiment [7] addresses SARS-CoV-2 early D614G spike pseudovirus. Here is the method:
as §1

Human monoclonal antibodies against the spike receptor-binding domain (heavy:light variable regions). IC50 against pseudoviruses bearing the spike of naturally observed variants; lower = stronger; >10 µg/ml means not reached at the top dose. No active / inactive call. The stated detection limit is 0.0005 µg/ml; values near or below 0.001 µg/ml lie at the floor of the assay. A value given as a limit tells only on which side of the number the result lay.

B1: BD56-533 (protein)
chain 1: QVQLMESGGGVVQPGRSLTISCSASGFTFSAYAMHWVRQAPGKGLEWVAVILDDGKNKLYADSGKGRFTISRDNPKNTLYLQMNSLRPEDTAVYYCARDQSLGMSTVTLFDQWGQGTLVTVSS
chain 2: DIQMTQSPSSLSASVGDRVTITCRASQSIRTYLNWYQQKPGKAPKLLIYEASRLQSGVPSRFSGSGSGTDFTLTINSLQPEDFATYFCQQSYNTPPWTFGQGTKVEI
As for B1, the “pseudovirus neutralization IC50” value in experiment [1] was 8.32 µg/mL; in experiment [2], 8.24 µg/mL; in experiment [3] it was over 10 µg/mL; in experiment [4] it was 9.87 µg/mL; in experiment [5], over 10 µg/mL; in experiment [6], over 10 µg/mL. In addition, in experiment [7], the “pseudovirus neutralization IC50” value stood at 6.21 µg/mL.

B2: BD56-523 (protein)
chain 1: EVQLVESGGGLVQPGGSLRLSCVASGFTFSSSDMHWVRQVTGKGLEWVSAIGTGGDTYYPDSVKGRFTISRENAKNSLYLQMNSLRAGDTAVYYCARVKCGAESGYEPCWYFDLWGRGTLVTVSS
chain 2: EIVMTQSPATLSVSPGERAALSCRASQSVSNNLAWYQQRPGQAPRLLIYGASTRATGIPARFSGSGSGTEFTLTISSLQSEDFAIYYCQQYYSWPPETFGPGTTVEIK
On to B2, for which the “pseudovirus neutralization IC50” value in experiment [1] is 8.64 µg/mL; in experiment [2], 7.75 µg/mL; in experiment [3], 4.44 µg/mL; in experiment [4], 6.85 µg/mL; in experiment [5], 5.9 µg/mL; in experiment [6], 5.8 µg/mL. Also, the “pseudovirus neutralization IC50” value in experiment [7] came out at 1.7 µg/mL.

B3: BD56-530 (protein)
chain 1: QVTLKESGPVLVKPTETLTLTCTVSGFSLSNARMGVSWIRQPPGKALEWLAHIFSSDEKSYNTSLNSRLTISRDTSKSRVVLNMTNMDPVDTATYYCARIPESAFGGDNWFDPWGQGTLVTVSS
chain 2: SYELTQAPSVSVSPGQTARITCSGDALPKQYAYWYQKKPGQAPVLVIYKDSERPSGIPERFSGSSSGTTVTLTISGVQAEDEADYYCQSGDSSGVVFGGGTKLTVL
In the case of B3, the “pseudovirus neutralization IC50” value was 3.63 µg/mL in experiment [1]; 3.66 µg/mL in experiment [2]; 6.61 µg/mL in experiment [3]; 3.51 µg/mL in experiment [4]; 4.28 µg/mL in experiment [5]; 8.05 µg/mL in experiment [6]. The “pseudovirus neutralization IC50” value in experiment [7] was 0.983 µg/mL.

B4: BD56-526 (protein)
chain 1: QVHLVQSGAEVKRPGASVKVSCKASGYTFTSYGISWVRQAPGQGLEWMGWISTDNGNTVYTHKLRGRVTMTTDRSTSTAFMELRTLTSDDTAVYYCAREGGVTVAYFDYWGQGTLVTVSS
chain 2: EIVLTQSPDFQSVTPKEKVTITCRASESIGTSLHWYQQKPDQSPKVLIKDASQSFSGVPSRFSGSGSGTDFTLTINSLEAEDAATYYCHQSSSLPYTFGQGTKLEIK
As to B4, the “pseudovirus neutralization IC50” value in experiment [1] was over 10 µg/mL; in experiment [2] it was 8.51 µg/mL; in experiment [3] it was over 10 µg/mL; in experiment [4], 8.18 µg/mL; in experiment [5], over 10 µg/mL; in experiment [6], over 10 µg/mL. Also, the “pseudovirus neutralization IC50” value in experiment [7] came to 2.46 µg/mL.

B5: BD56-519 (protein)
chain 1: QKHLVQSGPEVKKPGTSVKVSCKASGFTFSSSAVQWVRQARGQRLEWIGWIVVGSGQTEFVQKFQERATMTRDMSTSTVYMELSRLRSEDTAVYYCAAPYCGPTNCHDGFDIWGQGTMVTVSS
chain 2: EIVLTQSPGTLSLSPGERATLFCRASQSIRSNYFAWYQQKPGQAPTLLIYGPSSRATGIPDRFSGSGSGTDFSLTIRRLEPEDFAVYYCQQYGNSPWTFGQGTKVEIK
With B5, the “pseudovirus neutralization IC50” value in experiment [1] is 0.0476 µg/mL; in experiment [2] it was 0.0379 µg/mL; in experiment [3], 0.00613 µg/mL; in experiment [4], over 10 µg/mL; in experiment [5] it was over 10 µg/mL; in experiment [6], over 10 µg/mL. The “pseudovirus neutralization IC50” value in experiment [7] is 0.00917 µg/mL.

B6: BD56-525 (protein)
chain 1: QITLKESGPTLVKPTQTLTLTCTFSGFALSTSGVAVAWIRQPPGKALEWLALIYWNDDKHYSPSLKRRLTITKDTSKKQVVLTMTDMDPVDTATYYCAHNVQLWLTAFEYWGQGTMVTVSS
chain 2: DIQMTQSPSSLSASVGDSVTITCQASQDISNYLNWYQQKPGRAPKLLIFDASNLETGVPSRFSGSGSGTHFSFTISSLQPEDIATYYCQQYDNLPSITFGQGTRLEIK
Consider B6, for which the “pseudovirus neutralization IC50” value is 0.246 µg/mL in experiment [1]; 0.229 µg/mL in experiment [2]; 0.28 µg/mL in experiment [3]; 0.242 µg/mL in experiment [4]; over 10 µg/mL in experiment [5]; over 10 µg/mL in experiment [6]. In addition, in experiment [7], the “pseudovirus neutralization IC50” value was 0.52 µg/mL.
